Anti-infective test results gathered from many reports (values: NIAID ChemDB through PubChem).

All rows: whole-cell or culture tests; organism: Mycobacterium tuberculosis

Blank or dashed fields: not listed here. ECn is the concentration giving n% inhibition of infection, replication or growth. MIC50, MIC90 and the like: level of inhibition, or share of isolates inhibited. Two numbers with a dash give a range or band. MIC bound: limit read from a one-dose screen. Percent inhibition refers to the dose given; in toxicity tests it is the harm to the cells. Rows are shuffled and stem from different studies.

SMILES,tested at,cells,strain,read by,mutations,read-out,result
N=c1c2c(ncn1N)Oc1c(c(-c3ccccc3)nn1-c1ccccc1)C2c1ccc(Cl)cc1,6.25 µg/mL,,H37Rv,resazurin,,inhibition,100%
CC(C)[C@H]1CC[C@H]2[C@@H]3C=C[C@](C)(O)CC[C@]3(C)CC[C@]12C(=O)O,,,H37Rv,visual reading / absorbance,,MBC,312 µM
CCOC(=O)C1C(c2cc3cc(OC)ccc3nc2Cl)C2=C(CCCC2=O)N(c2cccnc2)C1N,6.25 µg/mL,,H37Rv,,,inhibition,96%
CC(C)N=c1cc2n(-c3ccc(Cl)cc3)c3ccccc3nc-2cc1Nc1ccc(Cl)cc1,,,H37Rv,resazurin,,MIC,0.03 µg/mL
NCCC(O)C(N)CC(=O)NC1CNC(=O)C(C2CCN=C(N)N2)NC(=O)/C(=C/NC(N)=O)NC(=O)C(CO)NC(=O)C(CO)NC1=O,,,05001 (H37RV),,,MIC,12.5 µg/mL
O[C@@H]([C@H](O)[C@H](O)CN=Cc1cccc(Cl)c1)[C@H](O)CN=Cc1cccc(Cl)c1,,,H37Rv (ATCC 27294),,,MIC,>100 µg/mL
COC(=O)C1C(c2cc3cc(Cl)ccc3nc2Cl)C2=C(CCCC2=O)N(c2cccnc2)C1N,6.25 µg/mL,,H37Rv,,,inhibition,84%
CNC(=O)OCc1nn(-c2ccc(Cl)c(Cl)c2)c(C)c1COC(=O)NC,,,H37Rv,,,MIC bound,>6.25 µg/mL
O=C(Cc1csc2nc(-c3ccc(Br)cc3)cn12)N/N=C1\SCC(=O)N1c1ccccc1,,,H37Rv,,,MIC,>6.25 µg/mL
CO[C@H]1/C=C/O[C@@]2(C)Oc3c(C)c(O)c4c(O)c(c(/C=N/N5CCN(C)CC5)c(O)c4c3C2=O)NC(=O)/C(C)=C\C=C\[C@H](C)[C@H](O)[C@@H](C)[C@@H](O)[C@@H](C)[C@H](OC(C)=O)[C@@H]1C,,,3426,resazurin,,MIC,30 µg/mL
NNC(=O)CCCCC(=O)O,,,H37Rv,,,MIC,60–100 µg/mL
NNC(=O)c1ccncc1,,,H37Rv,,,EC50,0.065 µg/mL
CC(=O)NC(CCC(NC(C)=O)C(=O)NN)C(=O)NN,,,H37Rv,,,MIC,200 µg/mL
CCN1CCN(c2c(F)cc3c(=O)c(C(=O)O)cn(C4CC4)c3c2OC)CC1,,,,,,MIC,0.39 µg/mL
C=CCN1C(=O)CS/C1=N\NC(=O)Cc1csc2nc(-c3ccc(Br)cc3)cn12,,,H37Rv,,,MIC,>6.25 µg/mL
C=CCn1c(-c2cc3ccccc3oc2=O)cs/c1=N\N=C\c1ccc(O)c(OCC)c1,,,H37Rv,,,MIC,<12.5 µg/mL
CCOc1ccc2c(c1)n([O-])c1cc(Br)ccc1[n+]2=O,,,PAS-R,,,MIC,3.1 µg/mL
NNC(=O)CCC(N)C(=O)NN,,,H37Rv,,,MIC,50 µg/mL
Cc1csc([C@](C)(O)c2nnc(Nc3ccn(Cc4c(F)cccc4F)n3)s2)n1,,,M103I,,,MIC,>25 µg/mL
O=[N+]([O-])c1ccc(C=NC[C@@H](O)[C@@H](O)[C@H](O)[C@H](O)CN=Cc2ccc([N+](=O)[O-])cc2)cc1,,,H37Rv (ATCC 27294),,,MIC,25 µg/mL
COc1cc(C)c2sc3ccccc3c(=O)c2c1NCCN(C)C.O=C(O)/C=C/C(=O)O,,VERO,H37Rv,BACTEC,,MIC,6.25 µg/mL
CCn1c(-c2cc3ccccc3oc2=O)cs/c1=N\N=C\c1cc(Br)ccc1O,,,H37Rv,,,EC50,<12.5 µg/mL
O[C@@H]([C@H](O)[C@H](O)CN=Cc1ccc(Cl)cc1)[C@H](O)CN=Cc1ccc(Cl)cc1,,,H37Rv (ATCC 27294),,,MIC,>100 µg/mL
O=c1oc2ccccc2c(O)c1C(c1ccc(C(c2c(O)c3ccccc3oc2=O)c2c(O)c3ccccc3oc2=O)cc1)c1c(O)c2ccccc2oc1=O,,,H37Rv,BACTEC,,MIC bound,>12.5 µg/mL
CC(C)=CCC[C@H](C)C1CC[C@@H](C)c2c1cc(C)c([N+](=O)[O-])c2O,,,H37Rv,resazurin,,MIC,>200 µM
CC(C)[C@H]1CC[C@H]2[C@@H]3C=C[C@](C)(O)CC[C@]3(C)CC[C@]12CO,,,H37Rv,visual reading / absorbance,,MBC,20.4 µM
CO[C@H]1/C=C/O[C@@]2(C)Oc3c(C)c(O)c4c(O)c(c(/C=N/N5CCN(C)CC5)c(O)c4c3C2=O)NC(=O)/C(C)=C\C=C\[C@H](C)[C@H](O)[C@@H](C)[C@@H](O)[C@@H](C)[C@H](OC(C)=O)[C@@H]1C,,,,,,MIC,0.5 µg/mL
CCOC(=O)C1C(c2cc3cc(C)ccc3nc2Cl)C2=C(CCCC2=O)N(c2cccnc2)C1N,6.25 µg/mL,,H37Rv,,,inhibition,74%
CC1=Nc2ccccc2C(=O)N(C)N1,,,H37Rv,BACTEC,,MIC bound,>12.5 µg/mL
Cc1cc(O)c2c(c1)C([C@@H](C)CCCC1OC1(C)CO)CC[C@H]2C,,,H37Rv,resazurin,,MIC,>200 µM
COC1CC(OC2CCC3(C)C(CCC4C3CCC3(C)C(C5=CC(=O)OC5)CCC43O)C2)OC(C)C1O,,,H37Rv,BACTEC,,MIC,≥12.5 µg/mL
O=C(Cc1csc2nc(-c3ccc(Br)cc3)cn12)N/N=C1\SCC(=O)N1c1ccc(Cl)cc1,6.25 µg/mL,,H37Rv,,,inhibition,0%
COc1cc(CC2C(=O)OCC2C2(c3ccc4c(c3)OCO4)SCCCS2)cc(OC)c1OC,,,H37Rv,BACTEC,,MIC bound,>12.5 µg/mL
COC(=O)c1c(C(=O)OC)c2c(Br)cc3ccccc3n2c1C(=O)c1ccc(C#N)cc1,,,,resazurin,XDR,MIC,16 µg/mL
CCCNC(=S)NNC(=O)Cc1csc2nc(-c3ccc(Br)cc3)cn12,6.25 µg/mL,,H37Rv,,,inhibition,0%
CN1CCN(CCCN2c3ccccc3Sc3ccc(C(F)(F)F)cc32)CC1,,,H37Rv-GFP,fluorescence,gfp,MIC,6 µg/mL
NNP(=O)(NN)C(Cl)(Cl)Cl,12.5 µg/mL,,H37Rv,BACTEC,,inhibition,0%
CO[C@H]1/C=C/O[C@@]2(C)Oc3c(C)c(O)c4c(O)c(c(/C=N/N5CCN(C)CC5)c(O)c4c3C2=O)NC(=O)/C(C)=C\C=C\[C@H](C)[C@H](O)[C@@H](C)[C@@H](O)[C@@H](C)[C@H](OC(C)=O)[C@@H]1C,,,M103L,,,MIC,0.007 µg/mL
CN(C)CCCN1c2ccccc2Sc2ccccc21,,,H37Rv-GFP,fluorescence,gfp,MIC,>25 µg/mL
C/C(C=N)=C\CC[C@H](C)C1CC[C@@H](C)c2c(O)cc(C)cc21,,,H37Rv,resazurin,,MIC,100.1 µM
CC(C)=NNC(=O)CCCCCC(=O)O,,,H37Rv,,,MIC,200 µg/mL
CCn1cc(C(=O)O)c(=O)c2cc(F)c(N3CCN(C)CC3)cc21,,,H37Rv,,,MIC,8 µg/mL
CN[C@@H]1[C@H](O[C@H]2[C@H](O[C@H]3[C@H](O)[C@@H](O)[C@H](N=C(N)N)[C@@H](O)[C@@H]3N=C(N)N)O[C@@H](C)[C@]2(O)C=O)O[C@@H](CO)[C@H](O)[C@H]1O,,,05001 (H37RV),,,MIC,6.25 µg/mL
Cc1ccc2nc(Cl)c(C3C4=C(CCCC4=O)N(c4cccnc4)C(N)C3C#N)cc2c1,6.25 µg/mL,,H37Rv,,,inhibition,20%
CSc1ccc2c(c1)N(CCCC1CCCCN1C)c1ccccc1S2,,,H37Rv-GFP,fluorescence,gfp,MIC,3 µg/mL
CC(=O)O[C@H]1C[C@@]2(C)[C@@H](C[C@@H](O)[C@H]3[C@@]4(C)CC[C@@H](O)[C@@H](C)[C@@H]4CC[C@@]32C)/C1=C(\CCC=C(C)C)C(=O)O,,,H37Rv,GFP,,MIC99,0.3 µM
O=C(O)CCC(CCC(=O)O)=NNC(=O)c1ccccc1,,,H37Rv,,,MIC,100 µg/mL
Cc1cc(=O)oc2cc(N)ccc12,,,591,resazurin,,MIC,1000 µg/mL
O=C(O)CCCCCC(=O)O,,,H37Rv,,,MIC,>100 µg/mL
C=CCOc1cccc(/C=C/C(=O)c2ccc(O)cc2O)c1,,,H37Rv,broth dilution,,MIC,>200 µg/mL
CC(C)=CCC[C@H](C)C1CC[C@@H](C)C2=C1C(=O)C(C)=CC2=O,,,H37Rv,resazurin,,MIC,>200 µM
CC1=CC[C@]2(C)CC[C@]3(C=O)[C@@H](C(C)C)CC[C@H]3[C@@H]2C=C1,,,H37Rv,visual reading / absorbance,,MBC,10.9 µM
CCOC(=O)C1C(c2cc3cc(Cl)ccc3nc2Cl)C2=C(CCCC2=O)N(c2cccnc2)C1N,6.25 µg/mL,,H37Rv,,,inhibition,52%
C/C=C/c1cc(OC)c2c(c1)C(C)C(c1ccc(O)c(OC)c1)O2,12.5 µg/mL,,H37Rv,BACTEC,,inhibition,37%
C/C(=C\CC[C@H](C)C1CC[C@@H](C)c2c(O)cc(C)cc21)CN,,,H37Rv,resazurin,,MIC,24.8 µM
O=C(/C=C/c1ccccc1)NC1C=Nc2ccccc2NC1=O,12.5 µg/mL,,H37Rv,BACTEC,,inhibition,0.6%
NC1[C@H]2CN(c3nc4c(cc3F)c(=O)c(C(=O)O)cn4-c3ccc(F)cc3F)C[C@@H]12,,,H37Rv,,,MIC,16 µg/mL
O=C1CCCCCCC/C=C\CCCCCCO1,,,H37Rv,BACTEC,,MIC,≥12.5 µg/mL
CC1CN(c2c(F)cc3c(=O)c(C(=O)O)cn(C4CC4)c3c2Br)CCN1,,,,,,MIC,0.78 µg/mL
COC(=O)c1ccc(C(=O)OC)c2nc3cc([N+](=O)[O-])ccc3nc12,,,H37Rv,BACTEC,,MIC bound,>12.5 µg/mL
CC(/C=N/O)=C\CC[C@H](C)C1CC[C@@H](C)c2c(O)cc(C)cc21,,,H37Rv,resazurin,,MIC,>200 µM
O=[N+]([O-])c1cccc(C=NC[C@@H](O)[C@@H](O)[C@H](O)[C@H](O)CN=Cc2cccc([N+](=O)[O-])c2)c1,,,H37Rv (ATCC 27294),,,MIC,25 µg/mL
CC1COc2c(N3CCN(C)CC3)c(F)cc3c(=O)c(C(=O)O)cn1c23,,,H37Rv,,,MIC,1 µg/mL
NNC(=O)c1ccncc1,,,,,,MIC,1 µg/mL
N#CC1=C([N+](=O)[O-])NC2OC[C@@H](OCc3ccc(OC(F)(F)F)cc3)CN12,,,Ddn-,broth dilution,,MIC,>100 µM
Cc1ccc(NC(=O)Oc2cc(C)c(Br)c(C)c2)cc1[N+](=O)[O-],,,H37Rv,BACTEC,,MIC bound,>12.5 µg/mL
O=S(=O)(O)CCCN1c2ccccc2Sc2ccc(Cl)cc21,,,H37Rv-GFP,fluorescence,gfp,MIC,25 µg/mL
N#CCC(=O)N/N=C(\CC1(O)C(=O)Nc2c(Cl)cc(Cl)cc21)c1ccccc1,,,H37Rv,BACTEC,,MIC bound,>12.5 µg/mL
Cc1cc(O)c2c(c1)C([C@@H](C)CCc1nn(C)cc1C)CC[C@H]2C,,,H37Rv,resazurin,,MIC,>200 µM
COCC12CCC(OC)C34C5CC6(O)C(OC)CC(OC(C)=O)(C5C6OC(=O)c5ccccc5)C(C(OC)C13)C4N(C)C2,12.8 µg/mL,,H37Rv,BACTEC,,inhibition,17%
O=C(O)COc1ccc(C2C(Oc3ccc(Cl)cc3)C(=O)N2c2ccc(Cl)c(F)c2)cc1,,,H37Rv,resazurin,,MIC90,1.56 µg/mL
CC1=C/C(=C(\c2ccccc2)c2cc(C)c(O)c(CNCC(=O)O)c2)C=C(CNCC(=O)O)C1=O,12.5 µg/mL,,H37Rv,BACTEC,,inhibition,0%
O=C(Cc1csc2nc(-c3ccc(Br)cc3)cn12)NNC(=S)Nc1ccc(Cl)cc1,6.25 µg/mL,,H37Rv,,,inhibition,14%
O=C(O)C1=C(C(=O)O)C2CCCC3C4CCCCC4N(N1)C23,,,H37Rv,resazurin,,MIC bound,>6.25 µg/mL
CC(C)[C@H]1CC[C@H]2[C@@H]3C=C[C@]4(C)CC[C@@]3(CC[C@]12CO)CO4,,,H37Rv,visual reading / absorbance,,MIC,20.5 µM
COC(C)CCOc1cc(O)c2c(c1N)C(=O)c1ccccc1C2=O,,,H37Rv,BACTEC,,MIC bound,>12.5 µg/mL
CCOc1cc(/C=N/N=c2\scc(-c3cc4cc(Br)ccc4oc3=O)n2C2CCCCC2)ccc1O,,,H37Rv,,,MIC,>12.5 µg/mL
CS(=O)(=O)N1C=CC2C(C=C1)C1(c3ccccc3)OC2(c2ccccc2)c2ccccc21,12.5 µg/mL,,H37Rv,BACTEC,,inhibition,-8%
CCOC(=O)CCCCC/C=N/NC(N)=S,,,H37Rv,,,MIC,50–100 µg/mL